Compound potency records, mixed from different reports. Data source: NIAID ChemDB in PubChem.

Common to all: whole-cell or culture tests; agent: HIV-1

An empty or dashed field is not shown.

smiles,cells,conditions,strain,read-out,mutations,method,result
O=C(CN1c2c(-c3ccccc3)n[nH]c2-c2ccccc2S1(=O)=O)N/N=C/c1cccc(Cl)c1,PBMC,-,-,EC50,-,-,2.2 µM
O=c1cc(Cc2ccccc2)nc(OC2CCCC2)[nH]1,MT-4,-,IIIB,EC50,-,cytopathic effect / MTT,41 µM
O=C(C(=O)N1CCN(C(=O)c2ccc(O)cc2)CC1)c1c[nH]c2ccccc12,MT-2,-,BRU,EC50,-,RT activity,<10 µM
OC[C@H]1OC(O)C[C@@H](O)[C@@H]1O,MT-4,-,-,EC50,-,syncytia,<10000 µM
Oc1cc(/C=C/c2cc(O)c(O)c(O)c2)cc(O)c1O,TZM-bl,-,BaL,EC50,-,luciferase,1.69 µM
COc1cc2c(cc1Cc1c(F)cccc1Cl)nc(-c1c(F)cccc1Cl)n2Cc1c(F)cccc1Cl,MT-4,-,IIIB,EC50,-,RT activity,>127 µM
CCOP(=O)(N[C@@H](C)C(=O)OC)OC[C@H]1O[C@@H](n2cc(C)c(=O)[nH]c2=O)C[C@@H]1N=[N+]=[N-],C8166,-,RF,EC50,-,p24,3 µM
NC(=O)c1cn(CCO)c(Cc2ccccc2)cc1=O,C8166,-,-,EC50,-,MTT,>100 µM
O=C1Nc2ccc(Cl)cc2[C@@](C#CC2CC2)(C(F)(F)F)[C@H]1OCc1ccncc1,MT-2,-,RF,EC50,-,-,<0.019 µM
CCOP(=O)(N[C@H](C(=O)OC)[C@@H](C)CC)OC[C@H]1O[C@@H](n2cc(C)c(=O)[nH]c2=O)C[C@@H]1N=[N+]=[N-],C8166,-,RF,EC50,-,p24,50 µM
O=C(Nc1ccccc1)c1cc(S(=O)(=O)Nc2n[nH]c(=O)n2-c2ccccc2)c(S)cc1Cl,CEM + CEM-SS,-,-,EC50,-,-,28.8 µM
Cc1ccc(N(C)C(=O)[C@H](Cc2cc(F)cc(F)c2)NC(=O)NS(=O)(=O)N[C@@H](Cc2cc(F)cc(F)c2)C(=O)N(C)c2ccc(C)cn2)nc1,MT-2,-,NL4-3,EC50,-,luciferase,0.4 µM
Nc1nc2c(ncn2[C@H]2C=C[C@@H](CO)C2)c(=O)[nH]1,CEM,-,-,EC50,-,-,2 µM
CC(=O)Nc1ccn([C@H]2CS[C@@H](COC(C)=O)O2)c(=O)n1,MT-4,-,BRU,EC50,-,syncytia,~0.1 µM
COc1ccc(N(C)C(=O)[C@H](Cc2ccccc2)NC(=O)NS(=O)(=O)N[C@@H](Cc2ccc(F)cc2)C(=O)N(C)C)cc1,MT-2,-,NL4-3,EC50,-,luciferase,2.67 µM
Nc1ncnc2c1ncn2[C@H]1CO[C@@H](CCP(=O)(O)O)O1,MT-4,-,-,EC50,-,cytopathic effect,47 µg/mL
CC(=O)OC[C@H]1O[C@@H](n2ccc(N)nc2=O)CS1,MT-4,-,BRU,EC50,-,syncytia,<100 µM
O=C1Nc2ccc(Cl)cc2[C@@](C#CC2CC2)(C(F)(F)F)[C@H]1OCc1ccccn1,MT-2,-,RF,EC50,-,-,<0.14 µM
Nc1ccn([C@H]2CC[C@@H](CO)O2)c(=O)n1,MT-4,-,IIIB,EC90,-,MTT,0.632 µM
COc1ccc(N(C)C(=O)[C@H](Cc2ccccc2)Nc2nc(N)nc(N[C@@H](Cc3ccccc3)C(=O)N(C)c3ccc(OC)cc3)n2)cc1,MT-2,-,NL4-3,EC50,-,luciferase,3.8 µM
O=C(CN1c2c(-c3ccccc3)n[nH]c2-c2ccccc2S1(=O)=O)N/N=C/c1c(Cl)cccc1Cl,PBMC,-,-,EC50,-,-,2.7 µM
CCC[C@@]1(CCc2ccccc2)CC(O)=C([C@H](CC)c2cccc(NS(=O)(=O)c3ccc(C(F)(F)F)cn3)c2)C(=O)O1,MT-4,-,r13205,EC50,-,reporter gene,729 nM
COc1c2c(cc3c1-c1c(cc4c(c1OC)OCO4)C[C@H](C)[C@H](C)C3)OCO2,H9,-,IIIB,EC50,-,p24,1.2 µg/mL
COc1ccc(/C=N/NC(=O)CN2c3c(-c4ccccc4)n[nH]c3-c3ccccc3S2(=O)=O)cc1,PBMC,-,-,EC50,-,-,42 µM
C=C(C)[C@@H]1CC[C@]2(NCCN(C)C)CC[C@]3(C)[C@H](CC[C@@H]4[C@@]5(C)CC=C(c6ccc(C(=O)O)cc6)C(C)(C)[C@@H]5CC[C@]43C)[C@@H]12,MT-2,-,NL4-3,EC50,-,-,<0.1 µM
CCOP(=O)(N[C@@H](CC(C)C)C(=O)OC)OC[C@H]1O[C@@H](n2cc(C)c(=O)[nH]c2=O)C[C@@H]1N=[N+]=[N-],C8166,-,RF,EC50,-,p24,30 µM
CC(S)C(=O)NCC(=O)O,H9,-,-,EC50,-,p24 / antigen,400 µg/mL
COC(=O)c1cccc2c(C(=O)C(=O)N3CCN(C(=O)c4ccccc4)CC3C(F)(F)F)c[nH]c12,HeLa + HELA CD4+/CCR5,-,-,EC50,-,luciferase,<10 µM
COc1c(Br)c2c(c(OC)c1OC)-c1c(c(Br)c(OC)c(OC)c1OC)C[C@](C)(O)[C@@H](C)C2,H9,-,IIIB,EC50,-,p24,>25 µg/mL
CC(C)COC12CCC(C(=O)C1)C1C(=O)N(CCCCN3CCN(c4ccccc4)CC3)C(=O)C12,MT-4,-,-,EC50,-,MTT,>84 µM
O=C1Nc2ccc(Cl)cc2[C@@](C#CC2CC2)(C(F)(F)F)[C@H]1OCc1ccccc1,MT-2,-,RF,EC50,-,-,<0.071 µM
COc1cc(OC2O[C@H](COC3O[C@@H](C)[C@H](O)[C@@H](O)[C@H]3O)[C@@H](O)[C@H](O)[C@H]2O)c2c(C)c3c(=O)oc(C)cc3c(OC)c2c1,C8166,-,MN,EC50,-,cytopathic effect / XTT,30 µg/mL
O=C(CN1c2c(-c3ccccc3)n[nH]c2-c2ccccc2S1(=O)=O)N/N=C/c1ccc([N+](=O)[O-])cc1,PBMC,-,-,EC90,-,-,>100 µM
CN(C(=O)[C@H](Cc1ccccc1)Nc1ncc(-c2cnc(N[C@@H](Cc3ccccc3)C(=O)N(C)c3ccc4scnc4c3)nc2)cn1)c1ccc2scnc2c1,MT-2,-,NL4-3,EC50,-,luciferase,0.34 µM
Cc1ccc2nc(-c3c(F)cccc3F)n(Cc3c(F)cccc3F)c2c1,MT-4,-,IIIB,EC50,-,RT activity,7.35 µM
C[C@@H]1CN(C(=O)c2ccccn2)CCN1C(=O)C(=O)c1c[nH]c2ccc(F)cc12,HeLa + HELA CD4+/CCR5,-,-,EC50,-,luciferase,<10 µM
O=C(CN1c2c(-c3ccccc3)n[nH]c2-c2ccccc2S1(=O)=O)N/N=C/c1cccc(Br)c1,PBMC,-,-,EC50,-,-,6 µM
O=C(C(=O)N1CCN(C(=O)c2occ(Cl)c2Cl)CC1)c1c[nH]c2c(F)ccc(F)c12,HeLa + HELA CD4+/CCR5,-,-,EC50,-,luciferase,<10 µM
CCN1c2ncc(CSc3cc(C)nc(C)c3)cc2C(=O)Nc2c(C)cc(Cl)nc21,C8166,-,WILD TYPE,EC50,-,p24,0.0012 µM
C[C@@H]1CCO[C@H]2Cn3cc(C(=O)NCc4ccc(F)cc4F)c(=O)c(O)c3C(=O)N12,TZM-bl,-,-,EC50,V72I,luciferase / luminescence,0.0025 µM
CCOP(=O)(NCC(=O)OC)OC[C@H]1O[C@@H](n2cc(C)c(=O)[nH]c2=O)C[C@@H]1N=[N+]=[N-],C8166,-,RF,EC50,-,p24,10 µM
Cc1c(Cc2ccccc2)nc(OC2CCCCC2)[nH]c1=O,MT-4,-,IIIB,EC50,-,cytopathic effect / MTT,4.7 µM
CC(C)C[C@H]1NC(=O)C(Cc2cn([C@]34C[C@H]5C(=O)N[C@H](Cc6ccccc6)C(=O)N5[C@H]3Nc3ccccc34)c3ccccc23)NC1=O,C8166,-,-,EC50,-,MTT,>100 µM
NS(=O)(=O)c1ccc(Cc2ccc3c(c2)NC(=O)N[C@]3(C#CC2CC2)C(F)(F)F)cc1,PBMC,pseudotyped,-,EC50,-,GFP,0.193 µM
Cc1c(Cc2ccccc2)nc(OC(C)C)[nH]c1=O,MT-4,-,IIIB,EC50,-,cytopathic effect / MTT,16 µM
COc1c2c(cc3c1-c1c(cc4c(c1OC)OCO4)C(OC(=O)c1ccccc1)[C@H](C)[C@@H](C)C3)OCO2,H9,-,IIIB,EC50,-,p24,3 µg/mL
OC[C@@H]1C[C@H](n2cnc3c(=S)nc[nH]c32)[C@@H](O)[C@H]1O,PBMC,-,-,EC50,-,-,49.8 µM
Nc1ccc(CO[C@H]2C(=O)Nc3ccc(Cl)cc3[C@@]2(C#CC2CC2)C(F)(F)F)cc1F,MT-2,-,RF,EC50,-,-,<0.026 µM
CC[C@@H](O)[C@]1(C)C[C@H](C)[C@@](O)([C@H]2C[C@H](C)[C@H]([C@]3(C)CC[C@H]([C@@H]4CC[C@@]5(O[C@H]([C@@H](C)[C@@H](OC)[C@H](C)C(=O)O)[C@H](C)[C@@H](OC)[C@H]5C)O4)O3)O2)O1,-,-,-,EC50,-,MTT / ELISA,5 µg/mL
Nc1cccc(CO[C@H]2C(=O)Nc3ccc(Cl)cc3[C@@]2(C#CC2CC2)C(F)(F)F)c1,MT-2,-,RF,EC50,-,-,<0.138 µM
C[C@H]1CN(C(=O)c2ccccc2)CCN1C(=O)C(=O)c1c[nH]c2cccc(Cl)c12,HeLa + HELA CD4+/CCR5,-,-,EC50,-,luciferase,<10 µM
COc1ccc(N(C)C(=O)[C@H](Cc2cc(F)cc(F)c2)NC(=O)CS(=O)(=O)N[C@@H](Cc2cc(F)cc(F)c2)C(=O)N(C)c2ccc(OC)cc2)cc1,MT-2,-,NL4-3,EC50,-,luciferase,0.38 µM
NC(=O)c1coc(Cc2ccccc2)cc1=O,C8166,-,-,EC50,-,MTT,>100 µM
COc1ccc(/C=N/NC(=O)CN2c3c(-c4ccccc4)n[nH]c3-c3ccccc3S2(=O)=O)c(OC)c1,PBMC,-,-,EC90,-,-,80.6 µM
C/C=C(/C)C(=O)OC1c2cc3c(c(OC)c2-c2c(cc4c(c2OC)OCO4)C[C@H](C)[C@]1(C)O)OCO3,H9,-,IIIB,EC50,-,p24,20 µg/mL
CN(C(=O)[C@H](Cc1cc(F)cc(F)c1)NC(=O)NS(=O)(=O)N[C@@H](Cc1cc(F)cc(F)c1)C(=O)N(C)c1ccccc1)c1ccccc1,MT-2,-,NL4-3,EC50,-,luciferase,0.09 µM
C/C=C(/C)C(=O)OC1c2cc3c(c4c2[C@](C(=O)C(=O)OC)(CO4)/C(=C\C(=O)OC)C[C@@H](C)[C@H]1C)OCO3,H9,-,IIIB,EC50,-,p24,35 µg/mL
CC(C)Oc1nc(Cc2ccccc2)cc(=O)[nH]1,MT-4,-,IIIB,EC50,-,cytopathic effect / MTT,26 µM
O=C(C(=O)N1CCN(C(=O)c2cccc(Cl)c2F)CC1)c1c[nH]c2ccccc12,MT-2,-,BRU,EC50,-,RT activity,<10 µM
C/C=C(/C)C(=O)OC1c2cc3c(c(OC)c2-c2c(cc4c(c2OC)OCO4)C[C@H](C)[C@H]1C)OCO3,H9,-,IIIB,EC50,-,p24,11 µg/mL
O=C(O)c1ccc2nc(-c3c(F)cccc3F)n(Cc3c(F)cccc3F)c2c1,MT-4,-,IIIB,EC50,-,RT activity,>117 µM
COc1nc(Cc2ccccc2)c(C)c(=O)[nH]1,MT-4,-,IIIB,EC50,-,cytopathic effect / MTT,>200 µM
CC(=O)Nc1ccn([C@H]2CS[C@@H](CO)O2)c(=O)n1,MT-4,-,BRU,EC50,-,syncytia,0.1 µM
CCN1c2ncc(CSc3cc(C)nc(C)c3)cc2C(=O)Nc2c(C)cc(F)nc21,C8166,-,WILD TYPE,EC50,-,p24,0.001 µM
Cn1cc(C(=O)O)c(=O)c2cc(N)c(N3CCN(c4ccccn4)CC3)cc21,Jurkat cells,-,HXBc2,EC50,-,RT activity,0.6 µM
O=C(CN1c2c(-c3ccccc3)n[nH]c2-c2ccccc2S1(=O)=O)N/N=C/c1cccc([N+](=O)[O-])c1,PBMC,-,-,EC50,-,-,3.3 µM
Cc1[nH]c2ccccc2c1C(=O)C(=O)N1CCN(C(=O)c2ccccc2)CC1,MT-2,-,BRU,EC50,-,RT activity,<10 µM
CCCCOc1nc(Cc2ccccc2)cc(=O)[nH]1,MT-4,-,IIIB,EC50,-,cytopathic effect / MTT,28 µM
CN(C(=O)[C@H](Cc1cc(F)cc(F)c1)NC(=O)NS(=O)(=O)N[C@@H](Cc1cc(F)cc(F)c1)C(=O)N(C)c1ccc(F)c(F)c1)c1ccc(F)c(F)c1,MT-2,-,NL4-3,EC50,-,luciferase,0.31 µM
Nc1ccc(CO[C@H]2C(=O)Nc3ccc(Cl)cc3[C@@]2(C#CC2CC2)C(F)(F)F)cc1,-,-,-,EC50,RT-L100I K103N,-,<3.848 µM
O=C(O)c1cc(-n2cccc2)ccc1Cl,PBMC + MT-2,-,BCF02 R5 GROUP O,EC50,-,p24,5.9 µM
COc1ccc(N(C)C(=O)[C@H](Cc2ccccc2)NC(=O)CN2CCN(CC(=O)N[C@@H](Cc3ccccc3)C(=O)N(C)c3ccc(OC)cc3)C2=O)cc1,MT-2,-,NL4-3,EC50,-,luciferase,0.17 µM

4 of the rows above, restated:

smiles | cells | conditions | strain | read-out | mutations | method | result
NC(=O)c1coc(Cc2ccccc2)cc1=O | C8166 | - | - | EC50 | - | MTT | >100 µM
CCN1c2ncc(CSc3cc(C)nc(C)c3)cc2C(=O)Nc2c(C)cc(F)nc21 | C8166 | - | WILD TYPE | EC50 | - | p24 | 0.001 µM
O=C(C(=O)N1CCN(C(=O)c2occ(Cl)c2Cl)CC1)c1c[nH]c2c(F)ccc(F)c12 | HeLa + HELA CD4+/CCR5 | - | - | EC50 | - | luciferase | <10 µM
CN(C(=O)[C@H](Cc1ccccc1)Nc1ncc(-c2cnc(N[C@@H](Cc3ccccc3)C(=O)N(C)c3ccc4scnc4c3)nc2)cn1)c1ccc2scnc2c1 | MT-2 | - | NL4-3 | EC50 | - | luciferase | 0.34 µM

ECn: concentration that inhibits the pathogen or its effect by n%. Conditions beyond the fields shown may differ between rows.